# From PMC7985570 (Signal Transduction and Targeted Therapy, 2021)
# Test system: S-D614, N501Y.V1, N501Y.V2, S-SARS and S-MERS pseudoviruses
# Conditions: including variants N501Y.V1 and N501Y.V2
row,SMILES,activity against S-pseudotyped coronaviruses
1,"COc1ccc(C[C@@H]2c3cc(Oc4cc(C[C@@H]5c6cc(OC)c(OC)cc6CCN5C)ccc4O)c(OC)cc3CCN2C)cc1 [SC185, Neferine]",highly potent pan-inhibitory activity
2,"CC1CCN(CC(O)COc2cccc(OCC(O)CN3CCC(C)CC3)c2)CC1 (stereo not shown) [SC171, 3,3'-(1,3-phenylenebis(oxy))bis(1-(4-methylpiperidin-1-yl)propan-2-ol)]",highly potent pan-inhibitory activity
3,"COc1ccc2cc1Oc1ccc(cc1)C[C@H]1c3c(cc4c(c3Oc3cc5c(cc3OC)CCN(C)[C@@H]5C2)OCO4)CCN1C [SC9, Cepharanthine]",highly potent pan-inhibitory activity
4,"COc1ccc2cc1Oc1ccc(cc1)C[C@H]1c3cc(c(OC)cc3CCN1C)Oc1c(OC)c(OC)c(OC)c3c1[C@H](C2)N(C)CC3 [SC161, Hernandezine]",highly potent pan-inhibitory activity
